# Source: the supplement of paper PMC10702517
# ± gives the standard deviation.
# Assay: chemical recovery from spiked human plasma; higher = better extraction
# Conditions: pooled human plasma
compound,measurement,setting,value
"O=[p+]1oc2ccccc2c2ccccc21 (stereo not drawn) [3,4,5,6-Dibenzo-1,2-oxaphosphane-2-oxide]",chemical recovery,extraction method: PES+SPE (3 d PDMS equilibration then HLB SPE),42.8 ± 2.5%
same,chemical recovery,extraction method: SPE only (HLB 96-well),42.2 ± 5.8%
same,chemical recovery,extraction method: solvent precipitation (ACN + hexane),66.5 ± 8.7%
